Taken from: PubChem BioAssay AID624099 (ICCB-Longwood, 2012)
The whole screen tested about 21,000 reagents; shown is a random part of them. 497 of all reagents (2.4%) were called active. 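Higher z means weaker E2 silencing; only reporter increases were scored, and knock-downs that hurt cell survival may mask genuine repressor factors.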 Entries without a mark were called inactive.

Screen: 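Human genes that papillomavirus E2 requires to repress the HPV18 LCR promoter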 (primary screen)
System: human C33A cervical carcinoma cells (HPV-negative) stably expressing BPV1 E2 and an HPV18 LCR luciferase reporter
Reagent: siRNA pool against human genes, 40 nM
Duration: 72 h
Read-out: 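HPV18 LCR reporter light per well, converted to plate-wise z-scores that exclude control wells, and averaged over triplicate plates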
Direction: mean z-score and z-score: higher = stronger reporter signal, weaker E2 silencing
Call rule: 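Hit if mean z-score reaches 2 and two or more of three replicate z-scores also reach 2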

no.	gene symbol	mean z-score	z-score, replicate A	z-score, replicate B	z-score, replicate C
1	IL22RA1	-1.41	-1.65	-1.25	-1.32
2	MYH8	-1.18	-1.14	-1.2	-1.2
3	DKK2	-0.62	-0.29	-0.46	-1.1
4	PGAP1	-0.15	-0.11	-0.16	-0.19
5	ZNF142	-0.57	-0.67	-0.36	-0.68
6	SERPINB1	2.87 (active)	2.91	2.57	3.14
7	FBXO17	-0.55	-0.46	-0.84	-0.34
8	REG3A	1.59	1.55	1.66	1.56
9	LINC00308	1.76	1.91	1.72	1.65
10	LINC02609	0.53	-0.26	0.96	0.9
11	SETBP1	0.82	0.76	1.08	0.61
12	SLC6A13	0.96	0.89	0.87	1.12
13	CA11	-1.02	-0.98	-0.95	-1.13
14	CTNNA2	0.2	0.06	0.02	0.52
15	TTF1	0.14	0.08	0.6	-0.26
16	TNNI3	1.38	0.86	1.54	1.73
17	BSDC1	1.48	1.29	1.55	1.59
18	BCORL1	0.59	0.59	0.74	0.43
19	STT3A	-0.25	-0.07	-0.5	-0.18
20	RND2	0.67	0.58	0.78	0.66
21	CD163	-1.35	-1.38	-1.41	-1.28
22	CATIP	-0.88	-0.79	-1.01	-0.83
23	SLC35F3	0.19	0.15	0.01	0.4
24	CDC26	-0.91	-0.65	-0.87	-1.2
25	CORO7	0.25	0.4	0.2	0.14
26	NUDT6	0.59	0.69	0.44	0.63
27	FGF4	-0.14	-0.02	-0.04	-0.35
28	LIN9	-1.21	-1.74	-0.86	-1.04
29	SLC17A4	-1.19	-1.09	-1.31	-1.17
30	IRF2BPL	2.1	2	1.94	2.37
31	SLC45A2	0.33	0.51	-0.05	0.54
32	SP140L	0.36	0.14	0.45	0.49
33	PRSS2	1.49	1.88	1.43	1.16
34	GPA33	0.29	0.42	0.27	0.18
35	NODAL	-1.26	-1.25	-1.21	-1.32
36	LCN12	-0.23	-0.34	-0.17	-0.18
37	RNF181	-0.12	0.23	-0.72	0.14
38	HBA1	-1	-0.87	-0.98	-1.14
39	PIEZO1	-1.88	-1.91	-1.9	-1.85

Just “mean z-score”, for 4 of the entries above:
BCORL1 = 0.59
STT3A = -0.25
RND2 = 0.67
CD163 = -1.35
